Results of unrelated studies side by side (data: NIAID ChemDB).

Common to all: tests on isolated targets

ICn is the concentration giving n% inhibition. An empty or dashed field is not shown. Lines come from different laboratories, so protocols vary. Fold resistance: result on the changed form divided by that on wild type. a–b is a range or a potency band. Inhibition is in % at the dose shown (toxicity tests: loss of growth or viability).

| structure | dose | changes | read-out | protein | strain or isolate | species | read by | result |
|---|---|---|---|---|---|---|---|---|
| O=C(/C=C/c1ccccc1Cl)Nc1nnc(NC2CCN(Cc3ccccc3)CC2)s1 | - | - | IC50 | Polymerase | - | Human cytomegalovirus | - | <25 µM |
| Cc1cn([C@H]2C=C[C@@H](COP(=O)(O)OP(=O)(O)OP(=O)(O)O)O2)c(=O)[nH]c1=O | - | RT-N137Y | IC50 | Reverse transcriptase | - | HIV | nucleotide incorporation / radiometric | 2.6 µM |
| O=C1NC(=O)C(Cc2ccc(OCc3ccccc3)cc2)C(=O)N1 | - | - | IC50 | Uracil phosphoribosyltransferase | RH | Toxoplasma gondii | - | >2000 µM |
| C=CCN(C(=O)OCc1ccc([N+](=O)[O-])cc1)C1CCN(CC[C@](C)(CN(C)S(=O)(=O)c2ccccc2)c2ccccc2)CC1 | - | CCR5-E283A | fold resistance | CCR5 | - | - | radiometric | 588 |
| O=P(O)(O)C(Br)P(=O)(O)O | - | - | IC50 | DNA polymerase | - | Epstein-Barr virus | - | >100 µM |
| COc1ccccc1C(=O)Nc1nnc(NCCNc2ccccc2)s1 | - | - | IC50 | Polymerase | - | Human cytomegalovirus | - | >25 µM |
| CO[P@](=O)(c1cc(C)cc(/C=C/C#N)c1)c1c(C(N)=O)[nH]c2ccc(Cl)c(F)c12 | - | - | IC50 | Reverse transcriptase | - | HIV | - | <0.366 µM |
| CC[C@H]1C(=O)Nc2ccc(F)cc2N1C(=O)OC(C)C | - | RT-N137E | IC50 | Reverse transcriptase | - | HIV | nucleotide incorporation / radiometric | 0.013 µM |
| O=C(Nc1nnc(NCCC(c2ccccc2)c2ccccc2)s1)c1ccc(F)cc1F | - | - | IC50 | Polymerase | - | Human cytomegalovirus | - | >25 µM |
| O=C(O)C(F)(Br)P(=O)(O)O | 100 µM | - | inhibition | DNA polymerase | - | Herpes simplex virus 1 | - | 71% |
| S=c1cccc[nH]1 | - | - | Ki | Uracil phosphoribosyltransferase | RH | Toxoplasma gondii | - | 570 µM |
| CCCCCCCC/C=C/CCCCCCCC(=O)Nc1nnc(NCc2cccc3ccccc23)s1.CCCCCCCC/C=C/CCCCCCCC(=O)Nc1nnc(NCc2cccc3ccccc23)s1 | - | - | IC50 | Polymerase | - | Human cytomegalovirus | - | <25 µM |
| O=C(c1ccccc1Cl)N1C[C@H](CN2CCC(O)(CCCc3ccc(-c4nn[nH]n4)cc3)CC2)[C@@H](c2ccccc2)C1 | - | CCR5-Y251A | fold resistance | CCR5 | - | - | radiometric | 5 |
| O=C(Nc1nnc(NCCCCc2ccccc2)s1)c1ccc(S(=O)(=O)F)cc1 | - | - | IC50 | Polymerase | - | Human cytomegalovirus | - | >25 µM |
| COc1ccccc1-c1cc(NS(=O)(=O)c2ccccc2C)c(C(=O)O)s1 | - | - | IC50 | NS3 ATPase | - | Hepatitis C virus | - | 5–20 µM |
| CC(F)(C(=O)O)P(=O)(O)O | 100 µM | - | inhibition | DNA polymerase | - | Herpes simplex virus 2 | - | 0% |
| CC1CN(C(=O)OCc2ccccc2)CCC1C(=O)N(C(=O)c1ccc(Cl)cc1Cl)c1cc(-c2ccccc2)sc1C(=O)O | - | - | IC50 | NS3 ATPase | - | Hepatitis C virus | - | <5 µM |
| O=C(Nc1nnc(NC2CCCc3ccccc32)s1)c1ccc([N+](=O)[O-])o1 | - | - | IC50 | Polymerase | - | Human cytomegalovirus | - | >25 µM |
| Cc1cc(=O)[nH]c(=O)[nH]1 | - | - | IC50 | Uracil phosphoribosyltransferase | RH | Toxoplasma gondii | - | >2000 µM |
| O=C(O)c1sc(-c2ccccc2)cc1NS(=O)(=O)c1cccc(Br)c1 | - | - | IC50 | NS3 ATPase | - | Hepatitis C virus | - | 5–20 µM |
| O=C(Nc1nnc(NCC(c2ccccc2)c2ccccc2)s1)c1cc2ccccc2s1 | - | - | IC50 | Polymerase | - | Human cytomegalovirus | - | >25 µM |
| CC(C)C(=O)N1C[C@H](CN2CCC(c3ccccc3)CC2)[C@@H](c2ccccc2)C1 | - | CCR5-D276A | fold resistance | CCR5 | - | - | radiometric | 2.92 |
| O=C(O)C(Br)(Br)P(=O)(O)O | - | - | IC50 | DNA polymerase | - | Herpes simplex virus 1 | - | >100 µM |
| NC1C(=O)NC(=O)NC1=O | - | - | IC50 | Uracil phosphoribosyltransferase | RH | Toxoplasma gondii | - | >2000 µM |
| Cc1cn([C@@H]2O[C@H](CO[Si](C)(C)C(C)(C)C)C3(OS(=O)(=O)C=C3N)[C@H]2O[Si](C)(C)C(C)(C)C)c(=O)n(C)c1=O | - | RT-N137D | fold resistance | Reverse transcriptase | - | HIV | nucleotide incorporation / radiometric | 0.75 |
| Cn1ccc(=O)[nH]c1=O | 2000 µM | - | inhibition | Uracil phosphoribosyltransferase | RH | Toxoplasma gondii | - | <5% |
| CN(C(=O)c1ccc(Cl)cc1)c1cc(-c2ccccc2)sc1C(=O)O | - | - | IC50 | NS3 ATPase | - | Hepatitis C virus | - | <5 µM |
| O=C(O)c1[nH]c(=O)[nH]c(=O)c1[N+](=O)[O-] | - | - | IC50 | Uracil phosphoribosyltransferase | RH | Toxoplasma gondii | - | >2000 µM |
| CCSCCNc1nnc(NC(=O)c2ccc(Cl)c(Cl)c2)s1 | - | - | IC50 | Polymerase | - | Human cytomegalovirus | - | >25 µM |
| O=P(O)(O)C(F)P(=O)(O)O | - | - | IC50 | DNA polymerase | - | Epstein-Barr virus | - | >100 µM |

The last 2 rows once more:

structure	dose	changes	read-out	protein	strain or isolate	species	read by	result
CCSCCNc1nnc(NC(=O)c2ccc(Cl)c(Cl)c2)s1	-	-	IC50	Polymerase	-	Human cytomegalovirus	-	>25 µM
O=P(O)(O)C(F)P(=O)(O)O	-	-	IC50	DNA polymerase	-	Epstein-Barr virus	-	>100 µM